Consider three substances from patent US20180263927A1.

The target of this assay is PSA (prostate specific antigen) (UniProt P07288). The experiment in a line: cell-based or functional assay.

Some results are limits rather than exact numbers.

Substance “Analog 210 (Ac-Hyp-Ser-Ser-Chg-Gln-Ser-Ser-Pro-O-(CH2)3-acylfulvene) (peptide)” registered a cytotoxicity IC50, 48 hour exposure, Prostate DuPro cells (trace PSA) of 3500 nM; a cytotoxicity IC50, 48 hour exposure, Prostate LnCAP cells (positive PSA) of 810 nM; a cytotoxicity IC50, 48 hour exposure, Prostate PC3 cells (negative PSA, control) of 4700 nM.
With “Analog 215 (Illudin S-Pro-Ser-Ser-Gln-Chg-Ser-Ser-Hyp-Ac) (peptide)”, the cytotoxicity IC50, 48 hour exposure, Prostate LnCAP cells (positive PSA) is > 20000 nM.
The substance “Analog 216 (Illudin M-Pro-Ser-Ser-Gln-Chg-Ser-Ser-Hyp-Ac) (peptide)” returned a cytotoxicity IC50, 48 hour exposure, Prostate DuPro cells (trace PSA) of 280 nM; a cytotoxicity IC50, 48 hour exposure, Prostate LnCAP cells (positive PSA) of 190 nM; a cytotoxicity IC50, 48 hour exposure, Prostate PC3 cells (negative PSA, control) of 190 nM.
